Patent US20240277795A1, “INHIBITORS OF CYSTEINE PROTEASES AND METHODS OF USE THEREOF” (Pardes Biosciences, Inc., priority 2021, published 2024)

Amino acid sequences for entries named in this document (tags omitted). Residues count along the entry.
UniProt P0C6X6, 3247-3549 limits assumed: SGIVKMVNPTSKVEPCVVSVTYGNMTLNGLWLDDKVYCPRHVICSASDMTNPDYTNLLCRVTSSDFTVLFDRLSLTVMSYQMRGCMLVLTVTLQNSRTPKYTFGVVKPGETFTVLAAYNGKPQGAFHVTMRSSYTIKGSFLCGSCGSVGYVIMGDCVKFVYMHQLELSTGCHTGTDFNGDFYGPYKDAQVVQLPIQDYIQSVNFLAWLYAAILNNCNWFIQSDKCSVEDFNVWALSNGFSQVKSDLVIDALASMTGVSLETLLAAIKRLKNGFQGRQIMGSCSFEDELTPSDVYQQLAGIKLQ
UniProt P0C6X1, 2966-3267 limits assumed: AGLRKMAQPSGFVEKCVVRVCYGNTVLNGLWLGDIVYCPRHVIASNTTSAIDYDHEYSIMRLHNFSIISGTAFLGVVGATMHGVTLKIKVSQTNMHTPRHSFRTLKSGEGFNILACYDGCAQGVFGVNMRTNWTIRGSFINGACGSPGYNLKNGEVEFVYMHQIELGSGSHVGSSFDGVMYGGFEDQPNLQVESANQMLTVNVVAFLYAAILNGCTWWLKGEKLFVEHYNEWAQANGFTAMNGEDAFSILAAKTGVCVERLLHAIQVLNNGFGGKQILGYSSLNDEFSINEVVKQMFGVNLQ

What was measured:
[1] = molecular target: OC43 Mpro (Human coronavirus OC43, UniProt P0C6X6); experiment: OC43 Mpro enzymatic assay; conditions: read-out: OC43 Mpro IC50; Table 3
Protocol: (§1) Compounds were assayed using standard methods to assess compound activity and IC50. As an exemplary for assessment of the SARS-COV2 Mpro, the C-His6-tagged Mpro (NC_045512) was cloned, expressed in E. coli and purified. The assay buffer contained 20 mM of Tris-HCl (pH 7.3), 100 mM of NaCl, 1 mM of EDTA, 5 mM of TCEP and 0.1% BSA. The final concentrations of the Mpro protein and substrate were 25 nM and 25 μM, respectively, in the Mpro enzymatic assay. The Km of the Mpro substrate for the protease was 13.5 μM.
(§2) The compounds were added to an assay plate. For 100% inhibition control (HPE, hundred percent effect), 1 μM GC376 was added. For no inhibition control (ZPE, zero percent effect), no compound was added.
(§3) IC50 values of compounds were calculated with the GraphPad Prism software using the nonlinear regression model of log(inhibitor) vs. response—Variable slope (four parameters). The inhibition activity was calculated using the formula below, IC50 values is calculated using the Inhibition % data.
(§4) [formula] • #HEP: Hundred percent effect controls. Containing substrate+enzyme+1 μM GC376. • ZPE: Zero percent effective controls. Containing enzyme+substrate, no compound. • Sample: Compound activity testing wells. Containing compound+enzyme+substrate. • BG: Compound background control wells. Containing compound+substrate, no enzyme.

[2] = molecular target: 229E Mpro (Human coronavirus 229E, UniProt P0C6X1); experiment: 229E Mpro enzymatic assay; conditions: read-out: 229E Mpro IC50; Table 3
Protocol: as §1, §2, §3, §4

[3] = molecular target: SARS-COV2 Mpro (Severe acute respiratory syndrome coronavirus 2, UniProt P0DTD1); experiment: COVID-19 (nCoV-2019, SARS-CoV2) Mpro enzymatic assay; conditions: read-out: COVID-19 Mpro IC50; Table 3

Measured: pIC50

CC1(C)[C@@H]2[C@@H](C(=O)N[C@H](C#N)C[C@@H]3CC4(CC4)NC3=O)N(C(=O)C(NC(=O)C(F)(F)F)C3CC(F)(F)C3)C[C@@H]21 (single isomer, unassigned)
> 5.70: all assays above

pIC50: −log10 of the molar value.
